Results on one compound are retold here after US5221665A, “N-substituted amides” (Boehringer Ingelheim Pharmaceuticals, Inc., priority 1991, dated 1993).

In brackets after ≈: the same amount, converted by molar mass. Bounds are passed on as bounds.

The target of experiment [1] is Recombitant HIV Proteinase (Human immunodeficiency virus type 1 group M subtype B, UniProt P04585).
The next experiment addresses Polio 3C - Proteinase (Poliovirus type 1, UniProt P03300). In words: Selectivity assay: Polio 3C - Proteinase.

Regarding `CC(C)C(NC(=O)CN(C(=O)[C@@H](NC(=O)c1ccc(C(=O)NS(=O)(=O)c2ccc(Cl)cc2)cc1)C(C)C)C1Cc2ccccc2C1)C(=O)C(F)(F)F` (some centres unmarked), the half-maximal inhibitory concentration (IC50) (commonly the concentration needed to halve the response being measured) in experiment [1] was found to be 125 µg/mL (≈ 164 µM). On Polio 3C - Proteinase, the “IC50, Polio 3C - Proteinase” value was more than 63 µg/mL.
